# Molecular target: HA of BPL-inactivated virus preparation of strain A/New Caledonia/20/99 (H1N1) (influenza A virus A/New Caledonia/20/99 …)
# Assay: ELISA, coated inactivated virus, IgG 5 µg/ml
row,Binder,OD 492 nm
1,"CR6257 (antibody, V domains shown) VH: QVQLVQSGAEVKKPGSSVKVSCKASGGPFRSYAISWVRQAPGQGPEWMGGIIPIFGTTKYAPKFQGRVTITADDFAGTVYMELSSLRSEDTAMYYCAKHMGYQVRETMDVWGKGTTVTVSS VL: QSALTQPAAVSGSPGQSITISCTGTSSDVGGYNYVSWYQQHPGKAPKLMIYEVSNRPSGVSNRFSGSKSGNTASLTISGLQAEDEADYYCSSYTSSSTYVFGTGTKVTVLG",1.34 OD 492 nm
2,"CR6272 (antibody, V domains shown) VH: QMQLVQSGAEVKKPGSSVKVSCKASGGTFSSYAITWVRQAPGQGLEWMGGIIGMFGSTNYAQNFQGRVTITADESTSTAYMELSSLRSEDTAVYYCARSTGYYPAYLHHWGQGTLVTVSS VL: QSALTQPRSVSGSPGQSVTISCTGTSSDVGGYNYVSWYQQHPGKAPKLMIYDVSKRPSGVPDRFSGSKSGNTASLTISGLQAEDEADYYCSSYTSSSTHVFGTGTKVTVLG",0.92 OD 492 nm
3,"CR6325 (antibody, V domains shown) VH: EVQLVESGAEVKKPGSSVKVSCKASGGTFSFYSMSWVRQAPGQGLEWMGGIIPMFGTTNYAQKFQGRVTITAVESTSTAYMEVSSLRSEDTAVYYCARGDKGIYYYYMDVWGKGTTVTVSS VL: QSALTQPASVSGSPGQSITISCTGTSSDVGGYNYVSWYQQHPGKAPKLMIYEVSNRPSGVSNRFSGSKSGNTASLTISGLQAEDEADYYCSSYTSSSTLVFGTGTKVTVLG",1.09 OD 492 nm
4,"CR6332 (antibody, V domains shown) VH: QVQLVQSGAEVKKPGSSVKVSCKASGGPFRNFAINWVRQAPGQGLEWMGGIIAVFGTTKYAHKFQGRVTITADDSTNTAYMELGSLKSEDTAVYYCARGPHYYSSYMDVWGEGTTVTVSS VL: DIQLTQSPSSLSASVGDRVTITCRASQGISTYLAWYQQKPGKVPKLLIYAASTLQSGVPSRFSGSGSGTDFTLTISSLQPEDVATYYCQKYNSAPSFGPGTKVDIKR",1.2 OD 492 nm
5,"CR6342 (antibody, V domains shown) VH: QVQLVQSGAEVKKPGSSVKVSCKASGGFFSSYAISWVRQAPGQGLEWMGGVIPIFRTANYAQNFQGRVTITADEFTSYMELSSLRSDDTAVYYCARLNYHDSGTYYNAPRGWFDPWGQGTLVTVSS VL: DIQMTQSPDSLAVSLGEKATINCKSSQSILNSSNNKNYLAWYQQKPGQPPKLLIYWASTRESGVPDRFSGSGSGTDFTLTISSLQAEDVAVYYCQQYYSSPPTFGQGTKVEIKR",1.32 OD 492 nm
6,"CR6268 (antibody, V domains shown) VH: QVQLVQSGAEVKKPGSSVKVSCKASGGTFSSYAISWVRQAPGQGLEWMGGIMGMFGTTNYAQKFQGRVTITADEFTSAAYMELRSLRSEDTAVYYCARSSGYYPEYFQDWGQGTLVTVSS VL: QSVLTQPPSESVSPGQTASVTCSGHKLGDKYVSWYQQKPGQSPVLLIYQDNRRPSGIPERFIGSNSGNTATLTISGTQALDEADYYCQAWDSSTAVFGGGTKLTVLG",1.39 OD 492 nm
7,"CR6336 (antibody, V domains shown) VH: QMQLVQSGAEVKKPGSSVKVSCKASGGTFSSYAISWVRQAPGQGLEWMGGIFGMFGTANYAQKFQGRVTITADEFTSAAYMELSSLGSEDTAMYYCARSSGYYPQYFQDWGQGTLVTVSS VL: EIVMTQSPGTLSLSPGQRATLSCRASQSVSSSYLAWYQQKPGQAPRLLMYGASSRATGIPDRFSGSGSGTDFTLTISRLEPEDFAVYYCQQYGSSSLTFGGGTKLEIKR",1.09 OD 492 nm
8,"CR6334 (antibody, V domains shown) VH: EVQLVETGAEVKKPGSSVKVPCKSSGSPFRSNAVSWVRQAPGQGLEWVGGILGVFGSPSYAQKFQGRVTITADESTNTVHMELRGLRSEDTAVYYCARGPTYYYSYMDVWGKGTTVTVSS VL: SYVLTQPPSESVAPGQTARITCGGNNIGRNSVHWYQQKPGQAPVLVVYDDSDRPSGIPERFSGSKSGNTATLIISRVEVGDEADYYCQVWHSSSDHYVFGTGTKVTVLG",1.13 OD 492 nm
9,"CR6343 (antibody, V domains shown) VH: QVQLVQSGAEVKKPGSSVKVSCKASGVTFSYYAMSWVRQAPGQGLEWMGGISPMFGTTTYAQKFQGRVTITADDSTSTAYMEVRSLRSEDTAVYYCARSSNYYDSVYDYWGQGTLVTVSS VL: QSVVTQPPSESVAPGQTARITCGGHNIGSNSVHWYQQKPGQAPVLVVYDNSDRPSGIPERFSGSNSGNTATLTISRVEAGDEADYYCQVWGSSSDHYVFGTGTKVTVLG",0.91 OD 492 nm
10,"CR6307 (antibody, V domains shown) VH: QVQLVQSGGGLVKPGGSLRLSCAASGFTFSSYSMNWVRQAPGKGLEWVSSISSSSSYIYYVDSVKGRFTISRDNAKNSLYLQMNSLRAEDTAVYYCARGGGSYGAYEGFDYWGQGTLVTVSS VL: EIVLTQSPGTLSLSPGERATLSCRASQRVSSYLAWYQQKPGQAPRLLIYGASTRAAGIPDRFSGSGSGTDFTLTISRLEPEDSAVYYCQQYGRTPLTFGGGTKVEIKR",0.23 OD 492 nm
11,"CR6262 (antibody, V domains shown) VH: QVQLQQSGAEVKKPGSSVKVSCKVSGVIFSGSAISWVRQAPGQGLEWMGGISPLFGTTNYAQKFQGRVTITADQSTNTTYMEVNSLRYEDTAVYFCARGPKYYSEYMDVWGKGTTVTVSS VL: DIQMTQSPSSLSASVGDRVTITCRASQGISSYLAWYQQKPGKVPTLLIYDASTLRSGVPSRFSGSGSATDFTLTISSLQPEDVATYYCQRYNSAPPITFGQGTRLEIKR",0.51 OD 492 nm
